Measurements reported in PubChem BioAssay AID1224833 (University of Georgia, 2016).
Purpose: 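Human genes whose knock-down alters rotavirus replication in monkey cells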 (primary screen). Cells: monkey MA104 kidney cells. Reagent: siRNA pool against human genes, 50 nM. Duration: 48 h knock-down before infection; read 24 h after infection. Challenge: infection with rotavirus strain RV3 two days after transfection; infectious dose for this stage not given. Read-out: 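Rotavirus antigen per well by fluorescent immunoassay, normalised to non-targeting control wells on each plate and given as a standard z-score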. Direction: z-score vs non-targeting control: higher = more rotavirus replication than with non-targeting control. Active means: In these data the active calls have z-score vs non-targeting control at about -1 or lower, or at about 1 or higher. Meaning of the calls: active = z-score beyond 1 either way; inactive = z-score within 1 of zero.
In all, the deposit lists about 12,000 reagents; this is a random part of them. About 5,600 of all reagents (46%) count as active. 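Active calls cover z-scores past 1 in both directions, so they include lowered as well as raised rotavirus replication.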

gene knocked down	z-score vs non-targeting control	activity call
HPS3	0.0245	inactive
KRT19	0.325	inactive
TRRAP	-1.26	active
POF1B	-1.38	active
SYT6	0.0381	inactive
RGS16	-0.517	inactive
NUP93	-0.315	inactive
ODAD4	-1.76	active
BEST2	-1.02	active
SCG2	-0.899	inactive
BSCL2	0.661	inactive
SERF1A	0.753	inactive
PARP12	-0.377	inactive
SV2C	1.55	active
ZNF518B	0.588	inactive
OR52E6	-3.18	active
OR1S2	1.35	active
MXRA8	-1.55	active
CSTB	-1.96	active
OR52L1	0.0473	inactive
CALCOCO1	1.06	active
CASQ1	0.123	inactive
VPS26A	0.18	inactive
KRTAP9-3	0.75	inactive
ETFB	-1.24	active
RASSF6	-1.99	active
HSPB9	-0.335	inactive
RAD50	-0.74	inactive
EXOC3L2	-1.64	active
CELSR2	-0.654	inactive
DDX3X	-0.287	inactive
SLC16A1	-2.13	active
NLRP11	1.1	active
ZNF107	-1.14	active
FAM24A	-0.552	inactive
SMARCD1	1.29	active
GJB3	1.04	active
RAN	0.998	inactive
MNS1	-0.357	inactive
POLA2	-0.805	inactive
PSMC3	-1.77	active
TTC1	-0.691	inactive
AP3B1	1.06	active
GIN1	-0.922	inactive
OGG1	-1.36	active
IFI27L1	-1.29	active
ZBED3	0.486	inactive
TBL3	-1.56	active
AQP5	-1.54	active
RAD23B	0.578	inactive
AGGF1	0.102	inactive
SRD5A3	-1.27	active
MTHFSD	-1.33	active
CAB39	-0.5	inactive
GPNMB	-0.88	inactive
EDEM1	-1.33	active
FAM193A	0.6	inactive
ATP8A2	-1.14	active
C1orf35	-0.746	inactive
GFRA2	-1.16	active
EBF3	-0.852	inactive
TIMD4	1.14	active
RIC8B	1.31	active
ATP1A2	-1.7	active
WDR5B	-0.218	inactive
C1QTNF4	-2	active
TRIP11	-1.78	active
ASPHD1	-2.32	active
CD101	-2.07	active
ETV2	-0.262	inactive
GRAMD4	0.919	inactive
GNL1	0.316	inactive
KREMEN1	-2.65	active
OSGIN2	-0.159	inactive
OR2J3	-0.746	inactive
SNCG	-1.42	active
ZNF397	0.22	inactive
TLX3	0.159	inactive
EEF1D	-0.563	inactive
PAX1	-2.69	active
MAP6	0.1	inactive
OR6B3	2.5	active
C8G	-0.588	inactive
UTP15	-0.827	inactive
SOS2	-0.721	inactive
KIF20A	2.49	active
HNRNPF	0.705	inactive
SPZ1	-0.766	inactive
ANO5	0.0457	inactive
GEMIN8	2.99	active
ZMYND12	-0.345	inactive
EGFL6	1.29	active
TRIP10	1.75	active
BRI3	0.0263	inactive
ZDHHC7	-0.385	inactive
AGPAT2	0.646	inactive
BTNL8	-1.71	active
ZNF138	-2.25	active
TAS2R43	-0.166	inactive
NMS	-1.07	active
ZP3	-0.028	inactive
OTUD5	0.825	inactive
SH2D1A	-0.807	inactive
ISM2	-1.23	active
ANAPC13	0.507	inactive
PPIL6	-2.35	active
CCT7	-1.1	active
BHMT2	-1.23	active
IL2RB	-1.24	active
MFAP3L	0.0434	inactive

8 entries from above, set out differently.
{"gene knocked down":"SCG2","z-score vs non-targeting control":-0.899,"activity call":"inactive"}
{"gene knocked down":"BSCL2","z-score vs non-targeting control":0.661,"activity call":"inactive"}
{"gene knocked down":"SERF1A","z-score vs non-targeting control":0.753,"activity call":"inactive"}
{"gene knocked down":"PARP12","z-score vs non-targeting control":-0.377,"activity call":"inactive"}
{"gene knocked down":"SV2C","z-score vs non-targeting control":1.55,"activity call":"active"}
{"gene knocked down":"ZNF518B","z-score vs non-targeting control":0.588,"activity call":"inactive"}
{"gene knocked down":"OR52E6","z-score vs non-targeting control":-3.18,"activity call":"active"}
{"gene knocked down":"OR1S2","z-score vs non-targeting control":1.35,"activity call":"active"}
